Data reported in the supplement of paper PMC9931576.
Numbering of substitutions follows the chain as printed. Human monoclonal antibodies against the spike receptor-binding domain (heavy:light variable regions). IC50 against pseudoviruses bearing the spike of naturally observed variants; lower = stronger; >10 µg/ml means not reached at the top dose. No active / inactive call. The stated detection limit is 0.0005 µg/ml; values near or below 0.001 µg/ml lie at the floor of the assay.

B1: XGv-261 (protein)
chain 1: QLQLQESGPGLVRPSETLSLTCTVSGGSITDSGYYWGWIRQPPGKGLEWIGNIFYSGSTYYNPSLKSRVTISVDTSKNQFSLRLSSVTAADTAVYYCAREIGIIDYWGQGSLVIVSS
chain 2: DIQMTQSPSSLSASVGDRVTITCRASQGISNSLAWYQQKPGKAPKLLLYGASTLESGVPSRFSGSGSGTHFTLTISSLQPEDFATYFCQQYYSSPPRTFGGGTKVEI
B2: XGv-284 (protein)
chain 1: EVQLVESGGGLEQPGRSLRLSCVASGFTFDDYAMHWVRQAPGKGLEWVSGSSWNSGTIGYADSVKGRFIISRDNAMNSLYLHINTLTTEDTALYYCAKDIGSGDGYNFAFDIWGQGTMVTVSS
chain 2: QSVLTQPPSVSGAPGQRVTVSCTGSSSNIGAGFDVHWYQRLPGTAPKLLIYGNNNRPSGVPDRFSGSKSGTSASLAITGLQAEDEADYYCQSYDSSLSGVVFGGGTKLTV
B3: XGv-300 (protein)
chain 1: EVQLVESGGGLMQPGGSLRLSCAASGFIVSRNYMNWVRQAPGKGLEWVSVIYSGGTTDYADSVKGRFTISRDNSMNTLYLQMNSLRVEDTAVYYCARDLVVFGMDVWGQGTTVTVSS
chain 2: DIQLTQSPSSLSASVRDRVTITCRASQGISSYLAWYQQKPGKAPKLLIYAASTLQSGVPSRFSGSGSGTDFTLTITSLQPEDFATYYCQHLNGYPLTFGGGTKVEIK
B4: XGv-305 (protein)
chain 1: QVQLVESGGGVVQPGRSLRLSCAASGFTFSTYGMHWVRQAPGKGLEWVAVIWNDGSGKLYADSVKGRFTISRDNSKNTLYLQMSSLRAEDTAVYYCARDQGELVTYFDYWGQGTLVTVSS
chain 2: DIQMTQSPSSLSASVGDRVTITCRASQSISRYLNWYQQKPGKAPKLLIYTTSNLQSGVPSRFSGSGSGTDFTLTISSLQLEDFATYYCQQSYSTPSWTFGQGTKVEI
B5: XGv-306 (protein)
chain 1: B4 chain 1 with Y32F
chain 2: DIQMTQSPSSLSASVGDRVTITCRASQSISRYLNWYQQKPGKAPKLLIYSASNLQSGVPSRFSGSGSGTDFTLTISSLQPEDFATYYCQQSYSTPSWTFGQGTKVEIK
B6: XGv-318 (protein)
chain 1: EVQLVESGGGLVQPGGSLRLSCAASGFTFSRYDMHWVRQPTGRGLEWVSSIGTSGDTYYPDSVKGRFTISRENAKNSLYLQMNSLRAGDTAVYFCARGGIVGYTYGNWYFDLWGRGTLVTVSS
chain 2: B5 chain 2 with S28T, R31K, S50A, N53S, S77G, S91C, S96P, W97I, K104R, V105L
B7: XGv-345 (protein)
chain 1: QVQLQESGPGLVKPSQTLSLTCTVSGGSIRSGSYYWSWIRQPAGKGLEWIGRVYTSGSTNYNPSLKTRVTISLETSKNHFSLKLSSVTAADTAVYYCARGEWEEDFALWGRGTLVTVSS
chain 2: DIQMTQSPSSLSASVGDRVTITCRASQSIASHLNWYQQKPGKAPKLLIYGASTLQSGVPSRFSGSGSGTAFTLTISSVQPEDFATYYCQQSYSAITFGQGTRLEIK
B8: XGv-355 (protein)
chain 1: QVQLVQSGSELKKPGASVKVSCKASGYTFTTDAMNWVRQAPGQGLEWMGWINTNTGNPTYAQGFTGRFVFSLDTSVSTAYLQISSLKAEDTAVYYCARGGPPYGSGWYVGGVYYGYGMDVWGQGTTVTVSS
chain 2: QSALTQPASVSGSPGQSITISCTGTSSDVGLYNYVSWYQQHPGKAPKLMIYDVSHRPSGVSNRFSASKSGNTASLTISGLQAEDEADYYCSSYTSSSTLVFGGGTKLTVL
B9: XGv-402 (protein)
chain 1: QVQLVESGGGVVQPGRSLRLSCAASGFTFNNYAMHWVRQAPGKGLEWVAVISYDGSNEFYLDSVKGRFAISRDNSKNTLYLQTNSLRGEDTAVYYCARESRRGADYWGQGTLVTVSS
chain 2: DIQMTQSPSSLSASVGDRVTITCRASQIISNYLNWYQQKPGKAPKLLIYAASSLQSGVPSRFSGSGSGTDFTLTISSLQPEDSATYYCQQSFSPLWTFGPGTKVEIK
B10: XGv-405 (protein)
chain 1: EVQLVESGGGLIQPGGSLRLSCVASEIIVSRNYMSWVRQAPGEGLEWVSSIYSGGSTYYGDSVKGRFTISRDSSKNTLYLQMNNVRAEDTAVYYCARDSPHRPGGIWGQGTLVTVSS
chain 2: DIQMTQSPPSLSASVGDRVTITCQASQDINNYLNWYQHKPGKAPKLLIYDASNLEPGVPSRFSGSRSGTDFTFTISSLQPEDIATYFCQQYDNLPCTFGGGTKVEIK
B11: XGv-412 (protein)
chain 1: QVQLVQSGSELKKPGASVRVSCKASGYNFNSYTMNWVRQAPGQGLEWMGWINTYTGIPTYAQGFTGRFVFSLDTSVTTAFLQISGLKAEDTAVYYCARGMDYDILTGSDHWGQGTLVTVSS
chain 2: DIVMTQSPLSLPVTPGEPATISCRSSQSLLHSNGNNYLDWYLQKPGQSPQLLIYLGSIRASGVPDRFSGSGSGTDFTLKISRVEAVDVGVYYCMQALQTPWTFGQGTKVEIK
B12: XGv-416 (protein)
chain 1: QLQLQESGPGLVKPSETLSLTCTVSGGSISSSDYYWGWIRQPPGKGLEWIGSIYYSGYTYYNPSLKSRVTISVDTSKNQFSLKLRSVTAADTAVYYCARHSGILFYDSSGFDYWGQGTLVTVSS
chain 2: EIVLTQSPGTLSLSPGERASLSCRASQSISSGFLAWYQQKPGQAPRLLIFGASSRATGIPDRFSGSGSGTAFTLTISRLEPEDFAVYYCQQYGTSPLTFGGGTKVEIK
B13: XGv-420 (protein)
chain 1: QVQLQESGPGLVKPSGTLSLTCAVSGGSINSNNWWSWVRQPPGKGLEWIGEIYHNGNTNYNPSLKSRVTISVDTSKNQFSLRLSSVTAADTAVYYCARGDSLDWFDPWGQGTLVTVSS
chain 2: B8 chain 2 with L31S, H41L, H55N, A66G, G103T, L107V

Each binder was assayed against SARS-CoV-2 Omicron BA.1 spike pseudovirus (assay: pseudovirus neutralization IC50; higher = weaker neutralization).
Method: (§1)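 Single-round VSV luciferase pseudovirus mixed with antibody dilutions for 1 h and put on Huh-7 cells for about a day; IC50 from the dose curve.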
B1 was tested, and the “pseudovirus neutralization IC50” value was 0.0121 µg/mL. B2 was tested, and the “pseudovirus neutralization IC50” value was 0.0195 µg/mL. B3 was tested, and the “pseudovirus neutralization IC50” value was 0.0806 µg/mL. For B4, the “pseudovirus neutralization IC50” value was greater than 10 µg/mL. B5 was tested, and the “pseudovirus neutralization IC50” value was greater than 10 µg/mL. B6 was tested, and the “pseudovirus neutralization IC50” value was greater than 10 µg/mL. For B7, the “pseudovirus neutralization IC50” value was 0.22 µg/mL. With B8 the “pseudovirus neutralization IC50” value was greater than 10 µg/mL. B9 was tested, and the “pseudovirus neutralization IC50” value was greater than 10 µg/mL. B10 was tested, and the “pseudovirus neutralization IC50” value was 0.0973 µg/mL. With B11 the “pseudovirus neutralization IC50” value was greater than 10 µg/mL. With B12 the “pseudovirus neutralization IC50” value was greater than 10 µg/mL. B13 was tested, and the “pseudovirus neutralization IC50” value was greater than 10 µg/mL.

What follows are binders tested against SARS-CoV-2 Omicron BA.2 spike pseudovirus in the same assay as above.
Method: as §1
B1 was tested, and the “pseudovirus neutralization IC50” value was 0.0173 µg/mL. In the case of B2, the “pseudovirus neutralization IC50” value is reported as 0.154 µg/mL. B3 was tested, and the “pseudovirus neutralization IC50” value was 0.144 µg/mL. For B4, the “pseudovirus neutralization IC50” value was greater than 10 µg/mL. With B5 the “pseudovirus neutralization IC50” value was greater than 10 µg/mL. With B6 the “pseudovirus neutralization IC50” value was greater than 10 µg/mL. In the case of B7, the “pseudovirus neutralization IC50” value is reported as 0.0536 µg/mL. B8 was tested, and the “pseudovirus neutralization IC50” value was greater than 10 µg/mL. B9 was tested, and the “pseudovirus neutralization IC50” value was greater than 10 µg/mL. In the case of B10, the “pseudovirus neutralization IC50” value is reported as 0.0221 µg/mL. For B11, the “pseudovirus neutralization IC50” value was greater than 10 µg/mL. For B12, the “pseudovirus neutralization IC50” value was greater than 10 µg/mL. With B13 the “pseudovirus neutralization IC50” value was 0.336 µg/mL.

These binders were tested against SARS-CoV-2 Omicron BA.2.75 spike pseudovirus in the same assay as above.
Method: as §1
In the case of B1, the “pseudovirus neutralization IC50” value is reported as 0.0345 µg/mL. With B2 the “pseudovirus neutralization IC50” value was 0.672 µg/mL. B3 was tested, and the “pseudovirus neutralization IC50” value was greater than 10 µg/mL. For B4, the “pseudovirus neutralization IC50” value was greater than 10 µg/mL. B5 was tested, and the “pseudovirus neutralization IC50” value was greater than 10 µg/mL. B6 was tested, and the “pseudovirus neutralization IC50” value was greater than 10 µg/mL. In the case of B7, the “pseudovirus neutralization IC50” value is reported as 0.0533 µg/mL. B8 was tested, and the “pseudovirus neutralization IC50” value was greater than 10 µg/mL. B9 was tested, and the “pseudovirus neutralization IC50” value was 0.146 µg/mL. With B10 the “pseudovirus neutralization IC50” value was 0.0249 µg/mL. With B11 the “pseudovirus neutralization IC50” value was greater than 10 µg/mL. For B12, the “pseudovirus neutralization IC50” value was greater than 10 µg/mL. In the case of B13, the “pseudovirus neutralization IC50” value is reported as greater than 10 µg/mL.

What follows are binders tested against SARS-CoV-2 Omicron BA.5 spike pseudovirus in the same assay as above.
Method: as §1
With B1 the “pseudovirus neutralization IC50” value was greater than 10 µg/mL. In the case of B2, the “pseudovirus neutralization IC50” value is reported as greater than 10 µg/mL. With B3 the “pseudovirus neutralization IC50” value was 0.709 µg/mL. B4 was tested, and the “pseudovirus neutralization IC50” value was greater than 10 µg/mL. For B5, the “pseudovirus neutralization IC50” value was greater than 10 µg/mL. With B6 the “pseudovirus neutralization IC50” value was greater than 10 µg/mL. In the case of B7, the “pseudovirus neutralization IC50” value is reported as 0.0884 µg/mL. In the case of B8, the “pseudovirus neutralization IC50” value is reported as greater than 10 µg/mL. For B9, the “pseudovirus neutralization IC50” value was greater than 10 µg/mL. For B10, the “pseudovirus neutralization IC50” value was 0.0422 µg/mL. In the case of B11, the “pseudovirus neutralization IC50” value is reported as greater than 10 µg/mL. With B12 the “pseudovirus neutralization IC50” value was greater than 10 µg/mL. For B13, the “pseudovirus neutralization IC50” value was 0.331 µg/mL.

Each binder was assayed against SARS-CoV-2 Omicron BQ.1.1 spike pseudovirus in the same assay as above.
Method: as §1
In the case of B1, the “pseudovirus neutralization IC50” value is reported as greater than 10 µg/mL. In the case of B2, the “pseudovirus neutralization IC50” value is reported as greater than 10 µg/mL. B3 was tested, and the “pseudovirus neutralization IC50” value was greater than 10 µg/mL. With B4 the “pseudovirus neutralization IC50” value was greater than 10 µg/mL. B5 was tested, and the “pseudovirus neutralization IC50” value was greater than 10 µg/mL. B6 was tested, and the “pseudovirus neutralization IC50” value was greater than 10 µg/mL. B7 was tested, and the “pseudovirus neutralization IC50” value was greater than 10 µg/mL. For B8, the “pseudovirus neutralization IC50” value was greater than 10 µg/mL. For B9, the “pseudovirus neutralization IC50” value was greater than 10 µg/mL. With B10 the “pseudovirus neutralization IC50” value was 0.0737 µg/mL. In the case of B11, the “pseudovirus neutralization IC50” value is reported as greater than 10 µg/mL. B12 was tested, and the “pseudovirus neutralization IC50” value was greater than 10 µg/mL. For B13, the “pseudovirus neutralization IC50” value was greater than 10 µg/mL.

What follows are binders tested against SARS-CoV-2 Omicron XBB spike pseudovirus in the same assay as above.
Method: as §1
With B1 the “pseudovirus neutralization IC50” value was greater than 10 µg/mL. With B2 the “pseudovirus neutralization IC50” value was greater than 10 µg/mL. In the case of B3, the “pseudovirus neutralization IC50” value is reported as greater than 10 µg/mL. With B4 the “pseudovirus neutralization IC50” value was greater than 10 µg/mL. In the case of B5, the “pseudovirus neutralization IC50” value is reported as greater than 10 µg/mL. B6 was tested, and the “pseudovirus neutralization IC50” value was greater than 10 µg/mL. For B7, the “pseudovirus neutralization IC50” value was greater than 10 µg/mL. B8 was tested, and the “pseudovirus neutralization IC50” value was greater than 10 µg/mL. With B9 the “pseudovirus neutralization IC50” value was greater than 10 µg/mL. For B10, the “pseudovirus neutralization IC50” value was 0.0351 µg/mL. With B11 the “pseudovirus neutralization IC50” value was greater than 10 µg/mL. In the case of B12, the “pseudovirus neutralization IC50” value is reported as greater than 10 µg/mL. B13 was tested, and the “pseudovirus neutralization IC50” value was greater than 10 µg/mL.

These binders were tested against SARS-CoV-2 early D614G spike pseudovirus in the same assay as above.
Method: as §1
For B1, the “pseudovirus neutralization IC50” value was 0.0173 µg/mL. For B2, the “pseudovirus neutralization IC50” value was 0.0215 µg/mL. With B3 the “pseudovirus neutralization IC50” value was 0.0732 µg/mL. In the case of B4, the “pseudovirus neutralization IC50” value is reported as 0.471 µg/mL. With B5 the “pseudovirus neutralization IC50” value was 0.442 µg/mL. With B6 the “pseudovirus neutralization IC50” value was 4.31 µg/mL. B7 was tested, and the “pseudovirus neutralization IC50” value was 0.0769 µg/mL. In the case of B8, the “pseudovirus neutralization IC50” value is reported as greater than 10 µg/mL. In the case of B9, the “pseudovirus neutralization IC50” value is reported as 0.0428 µg/mL. For B10, the “pseudovirus neutralization IC50” value was 0.00377 µg/mL. For B11, the “pseudovirus neutralization IC50” value was 0.0036 µg/mL. For B12, the “pseudovirus neutralization IC50” value was 2.13 µg/mL. For B13, the “pseudovirus neutralization IC50” value was 0.0235 µg/mL.
